A mixed list of measured activities; the numbers were collected in NIAID ChemDB.

Shared fields: tests in culture; species: Candida albicans; read-out: MIC

Conditions beyond the fields shown may differ between rows. An empty or dashed field is not shown. a–b is a range or a potency band.

structure | strain or isolate | read by | result
CCCCCOc1ccc(-c2ccc(-c3ccc(C(=O)N[C@H]4CCCNC(=O)C5C[C@H](NC(=O)C[N+](C)(C)C)CN5C(=O)C(C(C)O)NC(=O)C(CCc5ccc(O)cc5)NC(=O)C5C[C@@H](O)CN5C(=O)C(C(C)O)NC4=O)cc3)cc2)cc1 | ATCC CCH442 |  | 0.78 µg/mL
C[C@@H](B1OC2CC3CC(C3(C)C)[C@@]2(C)O1)[C@@H](Cc1ccccc1)NC(=O)[C@@H]1CCCN1 |  |  | ≤500 µg/mL
Cc1c(O)cccc1C(=O)N[C@@H](CSc1ccccc1)[C@H](O)CN1C[C@H]2CCCC[C@H]2C[C@H]1C(=O)NC(C)(C)C | I54 |  | 64 µg/mL
C[C@@H](B1OC2CC3CC(C3(C)C)[C@@]2(C)O1)[C@@H](Cc1ccccc1)NC(=O)C(N)Cc1ccccc1 |  |  | ≤500 µg/mL
CCC(C)n1ncn(-c2ccc(N3CCN(c4ccc(OC[C@H]5CO[C@](Cn6cncn6)(c6ccc(Cl)cc6Cl)O5)cc4)CC3)cc2)c1=O | Isolate CA-8 |  | >8 µg/mL
CCCCCCCCCCCCCCCC1=N[C@H]1C(=O)OC | 96-489 |  | 8 µg/mL
Cc1nn(-c2ccc(S(N)(=O)=O)cc2)c(=O)c2c(C)noc12 | ATCC 10231 | broth dilution | 50 µg/mL
CCCCCOc1ccc(-c2ccc(-c3ccc(C(=O)N[C@H]4CCCNC(=O)C5C[C@H](N=[N+]=[N-])N5C(=O)C(C(C)O)NC(=O)C(CCc5ccc(O)cc5)NC(=O)C5C[C@@H](O)CN5C(=O)C(C(C)O)NC4=O)cc3)cc2)cc1 | ATCC 10231 |  | 0.78 µg/mL
N#C/C(=N\Nc1ccc(F)cc1)c1nc2ccccc2o1 |  |  | >200 µg/mL
Cc1nn(C(=S)Nc2ccc(F)cc2)c(=O)c2c(C)noc12 | ATCC 10231 | broth dilution | 50 µg/mL
CCCCCCCC(=O)N[C@H]1C[C@H]2C(=O)NCCC[C@H](NC(=O)c3ccc(-c4ccc(-c5ccc(OCCCCC)cc5)cc4)cc3)C(=O)N[C@@H]([C@@H](C)O)C(=O)N3C[C@H](O)C[C@H]3C(=O)N[C@@H](CCc3ccc(O)cc3)C(=O)N[C@@H]([C@@H](C)O)C(=O)N2C1 | ATCC 38247 |  | >100 µg/mL
C[C@@H](NC(=O)[C@@H](N)Cc1ccccc1)[C@@H](Cc1ccccc1)B1OC2CC3CC(C3(C)C)[C@@]2(C)O1 |  |  | ≤500 µg/mL
CC(Oc1ccccc1)c1nnc(SCC(=O)Nc2nccs2)n1C1CCCCC1 | NRRL Y-27077 |  | >16 µg/mL
CCCCCCCCCCCCC/C=C\C1=NC1C(=O)OC | UCD-FR1 |  | 2 µg/mL
Cc1nn(-c2ccc(S(=O)(=O)/N=C3\SCCN3c3ccc(F)cc3)cc2)c(=O)c2c(C)noc12 | ATCC 10231 | broth dilution | ≥200 µg/mL
CC(O)C1NC(=O)C(CCc2ccc(O)cc2)NC(=O)C2C[C@@H](O)CN2C(=O)C(C(C)O)NC(=O)[C@@H](NC(=O)c2ccc(N3CCN(c4ccc(OCc5ccccc5)cc4)CC3)cc2)CCCNC(=O)C2C[C@H](N)CN2C1=O | ATCC 62376 |  | 0.2 µg/mL
C[C@H]1[C@H](O)[C@@H](C)/C=C/C=C/C=C/C=C/C=C/C=C/C=C/[C@H](O[C@@H]2O[C@H](C)[C@@H](O)[C@H](N)[C@@H]2O)C[C@@H]2O[C@](O)(C[C@@H](O)C[C@@H](O)CC[C@H](O)[C@@H](O)C[C@@H](O)CC(=O)O[C@H]1C)C[C@H](O)[C@H]2C(=O)O | R89-214 |  | 1 µg/mL
COC(=O)Cc1csc(NC(=O)CSc2nnc(C(C)Oc3ccccc3)n2C2CCCCC2)n1 | NRRL Y-27077 |  | 16 µg/mL
CC(C)C(=O)CCC[C@H]1CO[C@@](Cn2ccnc2)(c2ccc(F)cc2F)C1 | B02630 |  | 25 µg/mL
CCCCCOc1ccc(-c2ccc(-c3ccc(C(=O)N[C@H]4CCCNC(=O)[C@@H]5C[C@H](N)CN5C(=O)[C@H]([C@@H](C)O)NC(=O)[C@H](Cc5ccc(O)cc5)NC(=O)[C@@H]5C[C@@H](O)CN5C(=O)[C@H]([C@@H](C)O)NC4=O)cc3)cc2)cc1 | ATCC 38247 |  | 25 µg/mL
CCCCCOc1ccc(-c2ccc(-c3ccc(C(=O)N[C@H]4CCCNC(=O)C5C[C@H](NC(=O)Nc6ccccc6)CN5C(=O)C(C(C)O)NC(=O)C(CCc5ccc(O)cc5)NC(=O)C5C[C@@H](O)CN5C(=O)C(C(C)O)NC4=O)cc3)cc2)cc1 | ATCC 10231 |  | 6.25 µg/mL
OC(Cn1cncn1)(Cn1cncn1)c1ccc(F)cc1F | 9760-H85 |  | 12.5 µg/mL
N#CC(=C1CCCC1)c1nc2ccccc2o1 |  |  | <200 µg/mL
CC(C)C1=C[C@H]2C[C@]3(C=O)[C@@H]4CC[C@@H](C)[C@H]4C[C@@]2(CO[C@H]2C[C@@H]4OC(C)(C)O[C@@H]4[C@@H](C)O2)[C@]13C(=O)O | Isolate 4711E fluconazole-susceptible |  | <0.01 µg/mL
CCCCCOc1ccc(-c2ccc(-c3ccc(C(=O)N[C@H]4CCCNC(=O)C5C[C@H](N)CN5C(=O)C(C(C)C)NC(=O)C(CCc5ccc(O)cc5)NC(=O)C5C[C@@H](O)CN5C(=O)C(C(C)O)NC4=O)cc3)cc2)cc1 | ATCC CCH442 |  | 12.5 µg/mL
CCCCCOc1ccc(-c2ccc(-c3ccc(C(=O)N[C@H]4CCCNC(=O)[C@@H]5C[C@H](N)CN5C(=O)[C@H](CC)NC(=O)C(CCc5ccc(O)cc5)NC(=O)[C@@H]5C[C@@H](O)CN5C(=O)[C@H]([C@@H](C)O)NC4=O)cc3)cc2)cc1 | ATCC 62376 |  | 0.1 µg/mL
Nc1c(-c2nc3ccccc3o2)sc(=S)n1Cc1ccccc1 |  |  | <200 µg/mL
Cc1nn(-c2ccc(S(=O)(=O)/N=c3\scc(-c4ccccc4)n3-c3ccc(F)cc3)cc2)c(=O)c2c(C)noc12 | ATCC 10231 | broth dilution | ≥200 µg/mL
N#CC1=C(N)N2C(=C(C#N)C1c1ccccc1)Oc1ccccc12 |  |  | >200 µg/mL
C[C@H](N)C(=O)N[C@@H](CB1OC2CC3CC(C3(C)C)[C@@]2(C)O1)Cc1ccccc1 |  |  | ≤500 µg/mL
COc1ccc(C2C(C#N)=C(N)N3C(=C2C#N)Oc2ccccc23)cc1 |  |  | >200 µg/mL
CC(Oc1ccc(Cl)cc1)c1nnc(SCC(=O)Nc2nccs2)n1-c1ccccc1 | Clinical isolates |  | >16 µg/mL
CC1(C)C2CC3OB([C@H](Cc4ccccc4)[C@@H](Cc4ccccc4)NC(=O)[C@@H](N)CCCCN)O[C@]3(C)C1C2 |  |  | ≤500 µg/mL
CCCCCOc1ccc(-c2ccc(-c3ccc(C(=O)N[C@H]4CCCNC(=O)[C@@H]5C[C@H](N)CN5C(=O)[C@@H]([C@H](C)O)NC(=O)C(CCc5ccc(O)cc5)NC(=O)[C@@H]5C[C@@H](O)CN5C(=O)[C@H]([C@@H](C)O)NC4=O)cc3)cc2)cc1 | ATCC 62376 |  | 12.5 µg/mL
CC(C)C(=O)CCC[C@@H]1CO[C@@](Cn2cncn2)(c2ccc(F)cc2F)C1 | B02630 |  | >100 µg/mL
C[C@H]1[C@H](O)[C@@H](C)/C=C/C=C/C=C/C=C/C=C/C=C/C=C/[C@H](O[C@@H]2O[C@H](C)[C@@H](O)[C@H](N)[C@@H]2O)C[C@@H]2O[C@](O)(C[C@@H](O)C[C@@H](O)CC[C@H](O)[C@@H](O)C[C@@H](O)CC(=O)O[C@H]1C)C[C@H](O)[C@H]2C(=O)O | ATCC 90028 | broth dilution | 0.5 µM
COc1ccc(/C=C(\C#N)c2nc3ccccc3o2)cc1OC |  |  | >200 µg/mL
CC[C@@H]([C@H](C)O)n1ncn(-c2ccc(N3CCN(c4ccc(OC[C@@H]5CO[C@@](Cn6cncn6)(c6ccc(F)cc6F)C5)cc4)CC3)cc2)c1=O | Isolate CA-7 |  | >4 µg/mL
CCCCCc1ccc(C(=O)N[C@H]2CCCNC(=O)C3C[C@H](N)CN3C(=O)C(C(C)O)NC(=O)C(CCc3ccc(O)cc3)NC(=O)C3C[C@@H](O)CN3C(=O)C(C(C)O)NC2=O)cc1 | ATCC 62376 |  | 25 µg/mL
CCCCCOc1ccc(-c2ccc(-c3ccc(C(=O)N[C@H]4CCCNC(=O)[C@@H]5C[C@H](N)CN5C(=O)[C@H](CCCN=C(N)N)NC(=O)C(CCc5ccc(O)cc5)NC(=O)[C@@H]5C[C@@H](O)CN5C(=O)[C@H]([C@@H](C)O)NC4=O)cc3)cc2)cc1 | ATCC 62376 |  | 0.39 µg/mL
CCCCC/C=C\C1=N[C@H]1C(=O)OC | ATCC 14503 |  | 8–9 µg/mL
Cc1ccc(OC(C)c2n[nH]c(=S)n2C2CCCCC2)cc1 | NRRL Y-27077 |  | 0.5 µg/mL
Cc1nc2c(=O)n(-c3ccc(S(N)(=O)=O)cc3)nc(C)c2s1 | ATCC 10231 | broth dilution | 100 µg/mL
N#C/C(=N\Nc1ccc(Cl)cc1)c1nc2ccccc2o1 |  |  | >200 µg/mL
CCCCCCCCCCCCC/C=C/C1=N[C@H]1C(=O)OC | UCD-FR1 |  | 8 µg/mL
CC(C)C(=N)CCC[C@H]1CO[C@@](Cn2cccc2)(c2ccc(F)cc2F)C1 | A.10231 |  | 100 µg/mL
CCCCCOc1ccc(-c2ccc(-c3ccc(C(=O)N[C@H]4CCCNC(=O)[C@@H]5C[C@H](NC(C)=O)CN5C(=O)[C@H]([C@@H](C)O)NC(=O)[C@H](CCc5ccc(O)cc5)NC(=O)[C@@H]5C[C@@H](O)CN5C(=O)[C@H]([C@@H](C)O)NC4=O)cc3)cc2)cc1 | ATCC 38247 |  | 0.39 µg/mL
CC(C)C(=O)CCC[C@@H]1CO[C@@](Cn2cccc2)(c2ccc(F)cc2F)C1 | IFO. 1385 |  | >100 µg/mL
C[C@@H](NC(=O)[C@@H](N)CCCCN)[C@@H](Cc1ccccc1)B1OC2CC3CC(C3(C)C)[C@@]2(C)O1 |  | agar | ≤500 µg/mL

Repeating the final 7 entries:

| structure | strain or isolate | read by | result |
|---|---|---|---|
| Cc1nc2c(=O)n(-c3ccc(S(N)(=O)=O)cc3)nc(C)c2s1 | ATCC 10231 | broth dilution | 100 µg/mL |
| N#C/C(=N\Nc1ccc(Cl)cc1)c1nc2ccccc2o1 |  |  | >200 µg/mL |
| CCCCCCCCCCCCC/C=C/C1=N[C@H]1C(=O)OC | UCD-FR1 |  | 8 µg/mL |
| CC(C)C(=N)CCC[C@H]1CO[C@@](Cn2cccc2)(c2ccc(F)cc2F)C1 | A.10231 |  | 100 µg/mL |
| CCCCCOc1ccc(-c2ccc(-c3ccc(C(=O)N[C@H]4CCCNC(=O)[C@@H]5C[C@H](NC(C)=O)CN5C(=O)[C@H]([C@@H](C)O)NC(=O)[C@H](CCc5ccc(O)cc5)NC(=O)[C@@H]5C[C@@H](O)CN5C(=O)[C@H]([C@@H](C)O)NC4=O)cc3)cc2)cc1 | ATCC 38247 |  | 0.39 µg/mL |
| CC(C)C(=O)CCC[C@@H]1CO[C@@](Cn2cccc2)(c2ccc(F)cc2F)C1 | IFO. 1385 |  | >100 µg/mL |
| C[C@@H](NC(=O)[C@@H](N)CCCCN)[C@@H](Cc1ccccc1)B1OC2CC3CC(C3(C)C)[C@@]2(C)O1 |  | agar | ≤500 µg/mL |